# PubChem BioAssay AID624099 – ICCB-Longwood, 2012
# Test: 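Knock-downs relieving repression by E2 of an HPV18 LCR luciferase reporter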 (primary screen)
# Cell system: human C33A cervical carcinoma cells (HPV-negative) stably expressing BPV1 E2 and an HPV18 LCR luciferase reporter
# Reagent: siRNA pool against human genes, 40 nM
# Time to read-out: 72 h
# Read-out: 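HPV18 LCR reporter light per well, converted to plate-wise z-scores that exclude control wells, and averaged over triplicate plates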
# Direction: mean z-score and z-score: higher = stronger reporter signal, weaker E2 silencing
# Hit rule: 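Hit if mean z-score reaches 2 and two or more of three replicate z-scores also reach 2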
# This is one part, drawn at random, of about 21,000 reagents tested. 497 of them (2.4%) count as active. 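Higher z means weaker E2 silencing; only reporter increases were scored, and knock-downs that hurt cell survival may mask genuine repressor factors.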 A number with no mark means an inactive call. Reagents against one gene are numbered here.
The opening 2 entries, ahead of the listing:
gene knocked down,reagent no.,mean z-score,"z-score, replicate A","z-score, replicate B","z-score, replicate C"
VPS13B (GeneID 157680),1,0.43,-0.15,0.64,0.81
MYPN (GeneID 84665),1,0.69,1.14,0.59,0.33

The list itself, from the first entry:
gene knocked down,reagent no.,mean z-score,"z-score, replicate A","z-score, replicate B","z-score, replicate C"
VPS13B (GeneID 157680),1,0.43,-0.15,0.64,0.81
MYPN (GeneID 84665),1,0.69,1.14,0.59,0.33
ATP6V0A1 (GeneID 535),1,0.58,0.6,0.53,0.6
SLIT3 (GeneID 6586),1,1.11,1.29,0.91,1.12
C8B (GeneID 732),1,0.22,-0.09,0.44,0.32
UNK (GeneID 85451),1,-0.32,0.12,-0.34,-0.73
TTF1 (GeneID 7270),1,0.14,0.08,0.6,-0.26
LRRC26 (GeneID 389816),1,-0.18,-0.04,-0.17,-0.33
PHLPP2 (GeneID 23035),1,-1.11,-0.52,-1.45,-1.36
ARMC2 (GeneID 84071),1,-0.19,-0.24,-0.52,0.18
LOC400965 (retired record) (GeneID 400965),1,1,0.94,0.89,1.17
TNFRSF8 (GeneID 943),1,2.73 (active),2.98,2.87,2.35
SCAMP2 (GeneID 10066),1,0.41,0.19,0.68,0.35
NRBF2 (GeneID 29982),1,0.64,0.75,0.45,0.73
LOC401506 (retired record) (GeneID 401506),1,-0.81,-0.7,-0.89,-0.85
EHMT2 (GeneID 10919),1,0.7,0.73,0.45,0.91
PPIAP87 (GeneID 392352),1,-0.74,-0.17,-1.03,-1.01
OPLAH (GeneID 26873),1,0.68,0.33,0.75,0.95
MYO19 (GeneID 80179),1,2.12 (active),1.96,2.24,2.16
SLC6A11 (GeneID 6538),1,0.35,0.51,0.09,0.46
CDH3 (GeneID 1001),1,-0.52,-0.58,-0.74,-0.23
TUBGCP4 (GeneID 27229),1,-1.07,-1.02,-1.08,-1.11
ZNRF2 (GeneID 223082),1,0.61,0.67,0.54,0.52
NOMO2 (GeneID 283820),1,0.05,-0.13,-0.19,0.46
ZNF497 (GeneID 162968),1,-0.56,-0.67,-0.19,-0.8
C9orf72 (GeneID 203228),1,0.79,0.7,0.78,0.89
PRDM10 (GeneID 56980),1,-1.17,-1.05,-1.18,-1.27
CFAP47 (GeneID 286464),1,0.18,-0.2,0.6,0.15
CFAP47 (GeneID 286464),2,1.62,1.68,1.8,1.38
CFAP47 (GeneID 286464),3,0.74,0.52,0.65,1.05
CFAP47 (GeneID 286464),4,-0.35,0.09,-0.57,-0.57
KCNE4 (GeneID 23704),1,-0.46,-0.66,-0.44,-0.28
DNAH7 (GeneID 56171),1,0.18,0.17,0.14,0.24
ACTC1 (GeneID 70),1,1.97,1.94,1.85,2.11
POGLUT3 (GeneID 143888),1,0.58,0.49,0.64,0.59
PDE4DIPP3 (GeneID 199882),1,-0.11,-0.31,-0.14,0.12
PDE4DIPP3 (GeneID 199882),2,0.78,1.03,0.53,0.79
C12orf56 (GeneID 115749),1,0.35,0.47,0.18,0.41
ABCG4 (GeneID 64137),1,-1.53,-1.6,-1.38,-1.6
GNAL (GeneID 2774),1,0.92,0.82,1.11,0.85
ADAD1 (GeneID 132612),1,-0.23,-0.18,-0.26,-0.25
ZNF679 (GeneID 168417),1,-1.39,-1.29,-1.07,-1.79
PTPN21 (GeneID 11099),1,-0.34,-0.33,-0.5,-0.2
SLC39A2 (GeneID 29986),1,-1.75,-2,-1.9,-1.34
NRARP (GeneID 441478),1,-2.84,-3.26,-2.81,-2.45
FOSL2 (GeneID 2355),1,2.52 (active),2.56,2.5,2.49
LOC402279 (GeneID 402279),1,-0.14,-0.18,0.02,-0.25
PCGF1 (GeneID 84759),1,-1.06,-1.01,-1.08,-1.09
DHRS4 (GeneID 10901),1,1.4,1.27,1.33,1.61
RAB37 (GeneID 326624),1,-0.53,-0.52,-0.52,-0.57
SBNO1 (GeneID 55206),1,1.92,1.84,1.9,2.01
KLB (GeneID 152831),1,-0.18,-0.34,-0.24,0.05
LOC391763 (retired record) (GeneID 391763),1,0.37,0.5,-0.07,0.68
LOC391763 (retired record) (GeneID 391763),2,-1.21,-1.21,-1.24,-1.19
CFAP100 (GeneID 348807),1,1.21,1.09,1.24,1.29
FLJ31183 (retired record) (GeneID 401225),1,-0.02,0.02,0.22,-0.29
LOC401606 (retired record) (GeneID 401606),1,-0.33,-0.07,-0.42,-0.52
FGFBP1 (GeneID 9982),1,0.69,1.42,0.18,0.46
MED4 (GeneID 29079),1,-2.24,-2.24,-2.33,-2.16
HPGDS (GeneID 27306),1,-1.15,-1.32,-1.17,-0.96
SERPINB10 (GeneID 5273),1,0.64,0.5,0.7,0.71
CEP57 (GeneID 9702),1,1.16,1.26,1.01,1.19
PPM1N (GeneID 147699),1,0.57,-0.08,0.86,0.92
APTX (GeneID 54840),1,-0.07,-0.13,0,-0.09
MYH13 (GeneID 8735),1,-0.15,-0.28,-0.28,0.11
AP2S1 (GeneID 1175),1,0.77,0.84,0.53,0.93
IFITM3 (GeneID 10410),1,1.05,1.05,1.2,0.89
CEP95 (GeneID 90799),1,-0.17,-0.4,-0.32,0.22
RAB42 (GeneID 115273),1,1.63,2.06,1.42,1.42
IP6K3 (GeneID 117283),1,0.22,0.52,0.29,-0.16
BCS1L (GeneID 617),1,-0.09,-0.47,0.35,-0.14
UBIAD1 (GeneID 29914),1,0.35,0.41,0.39,0.23
GNG7 (GeneID 2788),1,-0.22,0.11,-0.6,-0.16
